Results of unrelated studies side by side (data: NIAID ChemDB).

All rows: whole-cell or culture tests

A number after MIC or MFC names an inhibition level or a share of isolates. Lines come from different laboratories, so protocols vary. Percent inhibition refers to the dose given; in toxicity tests it is the harm to the cells. ECn: concentration that inhibits the pathogen or its effect by n%. An empty or dashed field is not shown.

smiles,read-out,agent,tested at,strain or isolate,method,cells,value
C=Cc1cn([C@@H]2O[C@H](CO)[C@@H](O)[C@@H]2O)c(=O)[nH]c1=O,inhibition,Varicella zoster virus,0.1 µg/mL,Kawaguchi,plaque count,HELF,58%
O=S(=O)([O-])c1ccc2c(S(=O)(=O)[O-])cc(S(=O)(=O)[O-])cc2c1,inhibition,Adenovirus,10 µg/mL,TYPE 3,cytopathic effect,Human embryonic lung cells,0%
Cc1cn([C@@H]2O[C@H](CO)[C@@H](O)[C@@H]2O)c(=O)[nH]c1=O,inhibition,Varicella zoster virus,0.1 µg/mL,Asahikawa,plaque count,HELF,0%
Oc1ccc(O)c(C=Nc2ccccc2O)c1,MIC99,Cryptococcus neoformans,-,5396,-,-,11.3 µg/mL
CCO/N=C/c1ccc(OCCC2CCN(c3ccc(Cl)nn3)CC2)cc1,EC50,Rhinovirus,-,353 (ICAM-1 receptor group 13),neutral red,KB,0.026 µM
CCOC(=O)c1cnc(NCCCCNc2ccnc3cc(Cl)ccc23)nc1C,MIC99,Cryptococcus gattii,-,23/10993,-,-,5.7 µg/mL
O=S(=O)(O)c1ccc2cc(O)c(S(=O)(=O)O)cc2c1,inhibition,Rhinovirus,10 µg/mL,-,cytopathic effect,Human embryonic lung cells,10%
Cc1cc(CCCOc2c(C)cc(-c3noc(C(F)(F)F)n3)cc2C)on1,EC50,Rhinovirus,-,Isolate 43,cytopathic effect / visual reading,OHIO HELA-I,0.05 µg/mL
C=CCc1ccc(OC)c(OC)c1,MIC90,Candida tropicalis,-,2509,turbidity,-,340 µg/mL
O=c1[nH]c(=O)n([C@@H]2O[C@H](CO)[C@@H](O)[C@@H]2O)cc1/C=C/Br,inhibition,Varicella zoster virus,0.0001 µg/mL,HIRAI,plaque count,HELF,28%
O=C(O)c1ccc(S(=O)(=O)[O-])cc1C(=O)O,inhibition,Adenovirus,50 µg/mL,TYPE 3,cytopathic effect,Human embryonic lung cells,0%
O=[N+]([O-])c1ccc(C=Nc2ccccc2O)cc1,MIC,Cryptococcus neoformans,-,5396,broth dilution,-,22.6 µg/mL
CCC(CC)O[C@@H]1C=C(C(=O)O)C[C@H](N)[C@H]1NC(C)=O,EC50,Influenza A virus,-,Influenza A/Johannesburg/33/94 (H3N2),visual reading,MDCK,0.18 µM
O=C(Nc1ccc2cc(S(=O)(=O)[O-])cc(S(=O)(=O)[O-])c2c1)c1ccccc1,inhibition,Rhinovirus,50 µg/mL,-,cytopathic effect,Human embryonic lung cells,63%
CCOC(=O)c1c(C)nc(NCCCNc2ccnc3cc(Cl)ccc23)nc1-c1ccccc1,MIC99,Cryptococcus gattii,-,ATCC 24065,-,-,8 µg/mL
Nc1nc2c(ncn2COCCO)c(=O)[nH]1,inhibition,Varicella zoster virus,10 µg/mL,Asahikawa,plaque count,HELF,100%
Nc1c(S(=O)(=O)O)cc2cc(S(=O)(=O)O)cc(O)c2c1O,inhibition,Herpes simplex virus,10 µg/mL,-,cytopathic effect,Human conjunctiva cells,0%
O=c1[nH]c(=O)n([C@H]2C[C@H](O)[C@@H](CO)O2)cc1/C=C/Br,inhibition,Varicella zoster virus,0.1 µg/mL,Asahikawa,plaque count,HELF,100%
NS(=O)(=O)O,inhibition,Herpes simplex virus,10 µg/mL,-,cytopathic effect,Human amnion AV3 cells,0%